{
  "source": "patent US20070243170A1",
  "about": "(UNIVERSITY OF CHICAGO, published 2007)",
  "molecular_target": "endogenous hamster uPAR on J1.1 cells (hamster)",
  "assay": "cell-based or functional assay",
  "data": [
    {"substance": "human single chain uPA (scuPA), American Diagnostics Inc. (from UniProt P00749 21-431) (ligand)", "values": [
      {"measurement": "fold decrease in R5181 virus yield from J1.1 cells exposed to the highest concentration of scuPA, against untreated cells", "result": 10, "unit": "fold"}
    ]}
  ]
}
